Results of unrelated studies side by side (data: NIAID ChemDB).

All rows: tests in culture; organism: HIV-1; cell line: PBMC; measure: fold resistance

An empty or dashed field is not shown. Fold resistance has wild type as its base. Rows are shuffled and stem from different studies.

| structure | strain or isolate | mutations | read by | value |
|---|---|---|---|---|
| Cc1cccc(NC(=S)NC[C@H](C)c2ccccc2)n1 | NNRTI-resistant (RT Y181C) A17 | RT-Y181C | p24 | 35 |
| Cc1ccc(NC(=S)N[C@H](C)c2cccc3ccccc23)nc1 | RT multidrug-resistant (L74V V106A T215Y) | RT-L74V V106A T215Y | p24 | 0.3 |
| C[C@@H]1O[C@@H]2OCCC[C@@H]2[C@@H]1OC(=O)N[C@@H](Cc1ccccc1)[C@H](O)CN1C[C@H]2CCCC[C@H]2C[C@H]1C(=O)NC(C)(C)C | MM | PR-L10I K43T M46I I54V L63P A71V V82A L90M Q92K | p24 | >42 |
| O=c1[nH]cnc2c1ncn2[C@H]1CC[C@@H](CO)O1 | MM | MDR | p24 | 8 |
| C[C@@H](CNC(=S)Nc1ccc(Br)cn1)c1ccccc1 | NNRTI-resistant (RT Y181C K103N) A17V | RT-Y181C K103N | p24 | 360 |
| Cc1cn([C@H]2C[C@H](N=[N+]=[N-])[C@@H](CO)O2)c(=O)[nH]c1=O | XM-AZT-resistant | RT-M41L D67N K70R T215Y K219Q | p24 | 56 |
| CC(C)CN(C[C@@H](O)[C@H](Cc1ccccc1)NC(=O)O[C@H]1[C@H]2CCCO[C@H]2O[C@@H]1C)S(=O)(=O)c1ccc(N)cc1 | MM | PR-L10I K43T M46I I54V L63P A71V V82A L90M Q92K | p24 | 10 |
| Cc1cn([C@H]2C[C@H](N=[N+]=[N-])[C@@H](CO)O2)c(=O)[nH]c1=O | RT multidrug-resistant (L74V V106A T215Y) | RT-L74V V106A T215Y | p24 | 13.8 |
| Cc1ccnc2c1NC(=O)c1cccnc1N2C1CC1 | BCF07 | RT-A98G V106I Y181C |  | 170 |
| Nc1ccn([C@@H]2S[C@H](CO)C=C2F)c(=O)n1 | 3TC-resistant (RT M184V) | RT-M184V |  | 25 |
| O=c1[nH]cnc2c1ncn2[C@H]1CC[C@@H](CO)O1 | VAU (RT-A98G) | RT-A98G |  | 0.588 |
| Nc1ccn([C@@H]2CS[C@H](CO)O2)c(=O)n1 | 56252-1 NRTI resistant recombinant | RT-T69K K70G V75I F77L F116Y Q151M M184V | RT activity | 89 |
| Cc1ccc(NC(=S)NC[C@H](C)c2ccccc2)nc1 | NNRTI-resistant (RT Y181C) A17 | RT-Y181C | p24 | 366 |
| O=c1[nH]cnc2c1ncn2[C@H]1CC[C@@H](CO)O1 |  | RT-L74V T215Y K219Q | p24 | 5 |
| C[C@@H](CNC(=S)Nc1ccccn1)c1ccccc1 | NNRTI-resistant (RT Y181C K103N) A17V | RT-Y181C K103N | p24 | 16 |
| CC(C)OC(=O)OCOP(=O)(CO[C@H](C)Cn1cnc2c(N)ncnc21)OCOC(=O)OC(C)C | 7295-1 NRTI resistant recombinant | RT-D67N T69N K70R M184V T215F K219Q | RT activity | 1.1 |
| Fc1ccccc1CCNC(=S)Nc1ccc(Br)cn1 | NNRTI-resistant (RT Y181C) A17 | RT-Y181C | p24 | 200 |
| CC(C)=CCN1Cc2cc(Cl)cc3[nH]c(=S)n(c23)C[C@@H]1C | BCF06 | RT-A98G K103R |  | >312.5 |
| CC(C)(C)NC(=O)[C@@H]1C[C@@H]2CCCC[C@@H]2CN1C[C@@H](O)[C@H](Cc1ccccc1)NC(=O)[C@H](CC(N)=O)NC(=O)c1ccc2ccccc2n1 | MM | MDR | p24 | 93 |
| Nc1ccn([C@H]2CC[C@@H](CO)O2)c(=O)n1 |  | RT-L74V | p24 | 3.83 |
| Cc1cn([C@H]2C[C@H](N=[N+]=[N-])[C@@H](CO)O2)c(=O)[nH]c1=O | TM | MDR | p24 | 98 |
| Cc1cn([C@H]2C[C@H](N=[N+]=[N-])[C@@H](CO)O2)c(=O)[nH]c1=O | 3TC-resistant (RT M184V) Clinical isolate | RT-M184V | p24 | 0.4 |
| C[C@@H](CNC(=S)Nc1ccc(Br)cn1)c1ccccc1 | NNRTI-resistant (RT Y181C) A17 | RT-Y181C | p24 | 233 |
| COc1ccc(C[C@H](NC(=O)c2cccc(O)c2C)[C@H](O)C(=O)N2CSC(C)(C)[C@H]2C(=O)NCc2ccccc2C)cc1 | 1026-40 PI-resistant | PR-L10I M46I I54V L63P A71V V82A L90M | RT activity | 15 |
| Cc1csc(NC(=S)NC[C@H](C)c2ccccc2)n1 | NNRTI-resistant (RT Y181C) A17 | RT-Y181C | p24 | 124 |
| S=C(NCCC1=CCCCC1)Nc1ccc(Cl)cn1 | A17 | RT-K103N Y181C |  | 10000 |
| O=c1[nH]cnc2c1ncn2[C@H]1CC[C@@H](CO)O1 | XM-T69SSS | RT-T69SSS L210W T215Y | p24 | 1.3 |
| Cc1cn([C@H]2C[C@H](N=[N+]=[N-])[C@@H](CO)O2)c(=O)[nH]c1=O | 7295-1 NRTI resistant recombinant | RT-D67N T69N K70R M184V T215F K219Q | RT activity | 9.9 |
| Nc1ccn([C@H]2S[C@@H](CO)C=C2F)c(=O)n1 | 3TC-resistant (RT M184V) | RT-M184V |  | >100 |
| Cc1cn([C@H]2C=C[C@@H](CO)O2)c(=O)[nH]c1=O | 7324-1 NRTI resistant recombinant | RT-M41L D67N T69N K70R T215F K219E | RT activity | 2.6 |
| Cc1c(O)cccc1C(=O)N[C@@H](CSc1ccccc1)[C@H](O)CN1C[C@H]2CCCC[C@H]2C[C@H]1C(=O)NC(C)(C)C | TM | MDR | p24 | >71 |
| CC(C)Nc1cccnc1N1CCN(C(=O)c2cc3cc(NS(C)(=O)=O)ccc3[nH]2)CC1 | A17 | RT-K103N Y181C |  | >11100 |
| Cc1csc(NC(=S)N[C@H](C)c2cccc3ccccc23)n1 | A17V(RT-K103N Y181C) | RT-K103N Y181C | p24 | 10.4 |
| Cc1ccccc1CNC(=O)[C@H]1N(C(=O)[C@@H](O)[C@H](Cc2ccccc2)NC(=O)c2cccc(O)c2C)CSC1(C)C | 1026-40 PI-resistant | PR-L10I M46I I54V L63P A71V V82A L90M | RT activity | 6 |
| C[C@@H](NC(=S)Nc1ccc(Cl)cn1)c1cccc2ccccc12 | A17V(RT-K103N Y181C) | RT-K103N Y181C | p24 | 73.4 |
| Cc1ccc(NC(=S)NC[C@H](C)c2ccccc2)nc1 | NNRTI-resistant (RT Y181C K103N) A17V | RT-Y181C K103N | p24 | 613 |
| CC(C)c1nc(CN(C)C(=O)N[C@H](C(=O)N[C@@H](Cc2ccccc2)C[C@H](O)[C@H](Cc2ccccc2)NC(=O)OCc2cncs2)C(C)C)cs1 | Clinical isolate | PR-L10R N37D M46I I62V L63P A71V G73S V77I V82T L90M I93L | p24 | >23 |
| CC(C)Nc1cccnc1N1CCN(C(=O)c2cc3cc(NS(C)(=O)=O)ccc3[nH]2)CC1 | 458 clinical isolates delavirdine-resistant |  | p24 | 77 |
| Cc1cn([C@H]2C=C[C@@H](CO)O2)c(=O)[nH]c1=O | JSL | MDR | p24 | 9 |
| Cc1c(O)cccc1C(=O)N[C@@H](CSc1ccccc1)[C@H](O)CN1C[C@H]2CCCC[C@H]2C[C@H]1C(=O)NC(C)(C)C | Clinical isolate | PR-L10I V11I T12E I15V L19I R41K M46L L63 A71T V82A L90M | p24 | 3.91 |
| C[C@H]1O[C@@H]2OCCC[C@@H]2[C@@H]1OC(=O)N[C@@H](Cc1ccccc1)[C@H](O)CN1C[C@H]2CCCC[C@H]2C[C@H]1C(=O)NC(C)(C)C | TM | PR-L10I K14R R41K M46I I54V L63P A71V V82A L90M I93L | p24 | >32 |
| Cc1cn([C@H]2C[C@H](N=[N+]=[N-])[C@@H](CO)O2)c(=O)[nH]c1=O | 477 clinical isolates delavirdine-resistant |  | p24 | 1 |
| Cc1cccc(C)c1OCC(=O)N[C@@H](Cc1ccccc1)[C@@H](O)C[C@H](Cc1ccccc1)NC(=O)[C@H](C(C)C)N1CCCNC1=O | 052-52 PI-resistant | PR-L10R M46I L63P A71V V82T I84V | RT activity | 527 |
| CC(C)CN(C[C@@H](O)[C@H](Cc1ccccc1)NC(=O)O[C@H]1CCOC1)S(=O)(=O)c1ccc(N)cc1 | Clinical isolate | PR-L10I I15V E35D N37E K45R I54V L63P A71V V82T L90M I93L C95F | p24 | 10.4 |
| C[C@@H](NC(=S)Nc1ccc(Br)cn1)c1cccc2ccccc12 | A17 | RT-Y181C | p24 | 105 |
| COc1cccc(C[C@H](NC(=O)c2cccc(O)c2C)[C@H](O)C(=O)N2CSC(C)(C)[C@H]2C(=O)NCc2c(C)cccc2C)c1 | 1002-60 PI-resistant | PR-L10I M46I I54V L63P V82F L90M | RT activity | 5 |
| Cc1cccc(NC(=S)NC[C@H](C)c2ccccc2)n1 | NNRTI-resistant (RT Y181C) A17 | RT-Y181C | p24 | 35 |
| CC(C)CN(C[C@@H](O)[C@H](Cc1ccccc1)NC(=O)O[C@H]1CCOC1)S(=O)(=O)c1ccc(N)cc1 | 1002-60 PI-resistant | PR-L10I M46I I54V L63P V82F L90M | RT activity | 7 |
| C[C@@H](NC(=S)Nc1ccc(Br)cn1)c1cccc2ccccc12 | NNRTI-resistant (RT Y181C) A17 | RT-Y181C | p24 | 70 |

For reference, 7 entries again:

{"structure": "Nc1ccn([C@H]2S[C@@H](CO)C=C2F)c(=O)n1", "strain or isolate": "3TC-resistant (RT M184V)", "mutations": "RT-M184V", "value": ">100"}
{"structure": "Cc1ccc(NC(=S)NC[C@H](C)c2ccccc2)nc1", "strain or isolate": "NNRTI-resistant (RT Y181C K103N) A17V", "mutations": "RT-Y181C K103N", "read by": "p24", "value": "613"}
{"structure": "CC(C)CN(C[C@@H](O)[C@H](Cc1ccccc1)NC(=O)O[C@H]1CCOC1)S(=O)(=O)c1ccc(N)cc1", "strain or isolate": "Clinical isolate", "mutations": "PR-L10I I15V E35D N37E K45R I54V L63P A71V V82T L90M I93L C95F", "read by": "p24", "value": "10.4"}
{"structure": "C[C@@H](CNC(=S)Nc1ccc(Br)cn1)c1ccccc1", "strain or isolate": "NNRTI-resistant (RT Y181C) A17", "mutations": "RT-Y181C", "read by": "p24", "value": "233"}
{"structure": "Cc1ccccc1CNC(=O)[C@H]1N(C(=O)[C@@H](O)[C@H](Cc2ccccc2)NC(=O)c2cccc(O)c2C)CSC1(C)C", "strain or isolate": "1026-40 PI-resistant", "mutations": "PR-L10I M46I I54V L63P A71V V82A L90M", "read by": "RT activity", "value": "6"}
{"structure": "Cc1cn([C@H]2C[C@H](N=[N+]=[N-])[C@@H](CO)O2)c(=O)[nH]c1=O", "strain or isolate": "7295-1 NRTI resistant recombinant", "mutations": "RT-D67N T69N K70R M184V T215F K219Q", "read by": "RT activity", "value": "9.9"}
{"structure": "C[C@@H](NC(=S)Nc1ccc(Br)cn1)c1cccc2ccccc12", "strain or isolate": "NNRTI-resistant (RT Y181C) A17", "mutations": "RT-Y181C", "read by": "p24", "value": "70"}